{"source": "paper PMC9734383", "about": "(2022)", "binders": {"B1": {"name": "PN-SIA28 Fab (Fab, V domains shown)", "VH": "QVQLVESGGGVVQPGRSLRLSCAASGFPFSSYGMHWVRQAPGKGLEWVAGVSYDGSYKYYADSVKGRFTISRDSSKSTLYLQMNSLRPEDTAVYYCARPSAIFGIYIILNGLDVWGQGTTVTVSS", "VL": "EIVLTQSPSSVSASVGDRVTITCRATQGISSWLAWYQQKPGKPPKLLIFGASSLQSGVPSRFSGSGSGTDFTLTISSLQPEDFATYFCQQAHSFPLTFGGGTKVEIK", "modifications": "biotinylated (in the BLI assay)"}}, "target": "H2 HA (recombinant HA of the panel) (influenza A virus (strain  in …))", "assay": "BLI"}
{"binder": "B1", "values": [{"measurement": "Kd", "result": 51.6, "unit": "nM"}]}
